Assay results as given in paper PMC12144419, “Early preclinical development of Mycobacteriumtuberculosis amino acid biosynthesis pathway inhibitor DRILS-1398 as a potential anti-TB drug” (iScience, 2025).
pIC50: −log10 of the molar value. Like-named read-outs stand apart in the source and are kept apart here.

Chains of the proteins cited; added tags and fusions are not shown. Lines headed by an entry give the natural chain unless they say otherwise; changes in a name come on top.
UniProt Q12809: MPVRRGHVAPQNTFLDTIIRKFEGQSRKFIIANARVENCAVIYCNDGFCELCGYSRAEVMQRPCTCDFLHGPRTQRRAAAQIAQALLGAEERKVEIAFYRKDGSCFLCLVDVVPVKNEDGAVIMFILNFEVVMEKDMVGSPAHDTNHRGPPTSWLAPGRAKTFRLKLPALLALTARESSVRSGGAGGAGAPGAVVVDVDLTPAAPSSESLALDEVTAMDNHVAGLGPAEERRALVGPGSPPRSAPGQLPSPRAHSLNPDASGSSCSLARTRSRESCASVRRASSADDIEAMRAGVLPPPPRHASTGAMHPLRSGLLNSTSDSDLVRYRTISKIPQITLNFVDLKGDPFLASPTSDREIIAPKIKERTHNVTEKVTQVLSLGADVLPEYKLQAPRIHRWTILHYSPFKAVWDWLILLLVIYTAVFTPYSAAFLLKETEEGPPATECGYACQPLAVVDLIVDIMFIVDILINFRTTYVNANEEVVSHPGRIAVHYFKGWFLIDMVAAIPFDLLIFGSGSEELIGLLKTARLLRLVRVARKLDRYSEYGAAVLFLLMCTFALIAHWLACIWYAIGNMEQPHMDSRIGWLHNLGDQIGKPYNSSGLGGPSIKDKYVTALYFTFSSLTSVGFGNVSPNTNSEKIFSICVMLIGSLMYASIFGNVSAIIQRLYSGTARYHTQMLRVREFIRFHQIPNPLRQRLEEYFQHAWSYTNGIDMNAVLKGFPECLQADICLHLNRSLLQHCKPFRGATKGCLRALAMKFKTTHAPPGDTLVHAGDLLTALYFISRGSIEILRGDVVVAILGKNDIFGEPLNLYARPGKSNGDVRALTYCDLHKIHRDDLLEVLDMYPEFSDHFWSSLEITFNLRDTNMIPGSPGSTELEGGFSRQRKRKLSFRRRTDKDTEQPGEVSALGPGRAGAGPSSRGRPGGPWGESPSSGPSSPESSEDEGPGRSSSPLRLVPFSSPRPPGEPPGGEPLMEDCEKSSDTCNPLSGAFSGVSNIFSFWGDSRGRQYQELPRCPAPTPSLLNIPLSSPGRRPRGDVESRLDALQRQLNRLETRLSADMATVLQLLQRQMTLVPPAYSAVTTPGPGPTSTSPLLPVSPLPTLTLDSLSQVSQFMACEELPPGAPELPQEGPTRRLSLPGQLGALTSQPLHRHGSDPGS

Tests used:
hERG channel (IKr) [1] = molecular target: T1, hERG channel (IKr) (Homo sapiens, UniProt Q12809); experiment: cell-based
hERG channel (IKr) [2] = molecular target: T1, hERG channel (IKr)
hERG channel (IKr) [3] = molecular target: T1, hERG channel (IKr); remark: listed apart in the source

SMILES: CCCc1nn(C)c2c(-c3c[nH]c4ccc(Cl)cc34)nc(-c3ccc(Cl)cc3)nc12 [DRILS-1398]
- pIC50 (hERG channel (IKr) [1]): 4.99
- Inhibition of hERG current vs vehicle control (hERG channel (IKr) [2]; 0.1 μM): 18.59%
- Inhibition of hERG current vs vehicle control (hERG channel (IKr) [2]; 0.3 μM): 32.32%
- Inhibition of hERG current vs vehicle control (hERG channel (IKr) [2]; 1 μM): 32.98%
- Inhibition of hERG current vs vehicle control (hERG channel (IKr) [2]; 3 μM): 39.09%
- Inhibition of hERG current vs vehicle control (hERG channel (IKr) [2]; 10 μM): 47.89%
- Inhibition of hERG current vs vehicle control (hERG channel (IKr) [2]; 30 μM): 60.18%
- hERG (IKr) inhibition, verdict (hERG channel (IKr) [3]): moderate inhibitor
